Measured values from several laboratories, pooled; numbers as filed in NIAID ChemDB.

Common to all: tests in culture; species: Hepatitis C virus; measure: EC50

ECn: concentration that inhibits the pathogen or its effect by n%.

{"smiles": "COC(=O)N[C@@H](C(=O)N1CCC[C@@H]1c1ncc(-c2ccc(-c3cnc(-c4cnc([C@H]5CCCN5C(=O)[C@H](NC(=O)OC)c5ccccc5)[nH]4)cn3)cc2)[nH]1)c1ccccc1", "strain": "1b", "result": "0.00001–0.000999 µM"}
{"smiles": "CCCCCCCCOc1ccc(N(C(=O)CCC(=O)O)c2nc(-c3cccnc3)c(F)s2)cc1C(F)(F)F", "result": "<1 µM"}
{"smiles": "CN(C)[C@H](C(=O)N1CSC[C@H]1c1ncc(-c2ccc(-c3ccc(-c4cnc([C@@H]5CSCN5C(=O)[C@@H](c5ccccc5)N(C)C)[nH]4)cc3)cc2)[nH]1)c1ccccc1", "strain": "1b", "result": "0.001–0.099 µM"}
{"smiles": "COCCN(C(=O)C1CCC(C)CC1)c1cc(-c2ccc(-c3cn4ccsc4n3)cc2)sc1C(=O)O", "strain": "1b", "read by": "replicon / ELISA", "result": "0.01–0.049 µM"}
{"smiles": "CC(C)S(=O)(=O)NC(=O)c1c(-c2ccc[nH]c2=O)c2c3occc3c(F)cc2n1Cc1ccccc1F", "read by": "replicon", "result": "<0.5 µM"}
{"smiles": "CCCCCOc1ccc(N(C(=O)C(=O)OC)c2nc(-c3ccc4[nH]c(=O)oc4c3)cs2)cc1C(F)(F)F", "result": "<1 µM"}
{"smiles": "COCCN(C(=O)C1CCC(C(F)(F)F)CC1)c1cc(-c2ccc(-c3cc4ncccn4n3)cc2)sc1C(=O)O", "strain": "1b", "read by": "replicon / ELISA", "result": "0.05–0.099 µM"}
{"smiles": "O=C(O)c1sc(-c2ccc(-c3cc4ncccn4n3)cc2)cc1N(C(=O)c1ccc(Cl)cc1F)C1CCOC1", "strain": "1b", "read by": "luciferase / replicon", "result": "0.01–0.05 µM"}
{"smiles": "CC1CCC(C(=O)N(CC2CCOCC2)c2cc(-c3ccc(-c4cn5ccsc5n4)cc3)sc2C(=O)O)CC1", "strain": "1a", "read by": "replicon / ELISA", "result": "0.001–0.0049 µM"}
{"smiles": "CS(=O)(=O)NC(=O)c1c(-c2ccc[nH]c2=O)c2c3occc3c(F)cc2n1Cc1cc(C(=O)NC2CC2)ccc1F", "read by": "replicon", "result": "0.5–1.5 µM"}
{"smiles": "NS(=O)(=O)c1ccc(CNc2nc(NCC(F)(F)F)c3nc(-n4ccnc4)ccc3n2)cc1", "read by": "replicon", "result": "<0.1 µM"}
{"smiles": "NC(=O)COc1ccc2c(c1)S(=O)(=O)N=C(c1c(O)c3cc(F)ccc3n(CCC3CC3)c1=O)N2", "strain": "1a 45958", "read by": "replicon", "result": "0.91 µM"}
{"smiles": "CC(C)N(C(=O)c1ccc(Cl)cc1F)c1cc(-c2ccc(-c3cc4ncccn4n3)cc2)sc1C(=O)O", "strain": "1b", "read by": "replicon / ELISA", "result": "0.01–0.05 µM"}
{"smiles": "COC(=O)Nc1ccc(-c2ccc3nc(NCc4ccc(S(N)(=O)=O)cc4)nc(NCC(F)(F)F)c3n2)cc1", "read by": "replicon", "result": "<0.1 µM"}
{"smiles": "CC(C)COc1ccc(N(C(N)=O)c2nc(-c3ccc(F)cc3)cs2)cc1C(F)(F)F", "result": "<1 µM"}
{"smiles": "COCCN(C(=O)C1CCC(C)CC1)c1cc(-c2ccc(-c3cc4ncccn4n3)cc2)sc1C(=O)O", "strain": "1a", "read by": "replicon / ELISA", "result": "0.001–0.0049 µM"}
{"smiles": "COC(=O)N[C@H](C(=O)N1CCC[C@@H]1c1ncc(-c2ccc(-c3ncc(-c4cnc([C@H]5CCCN5C(=O)[C@@H](NC(=O)OC)C5CC5)[nH]4)cn3)cc2)[nH]1)C1CC1", "strain": "1b", "result": "0.00001–0.000999 µM"}
{"smiles": "O=C(O)c1c(-c2ccc[nH]c2=O)c2c3ccccc3c(F)cc2n1Cc1cc([N+](=O)[O-])ccc1F", "read by": "replicon", "result": "<1 µM"}
{"smiles": "CCOc1nc(NCc2ccc(F)cc2)nc2ccc(-c3ccc(NC(=O)NC4CC4)cc3)nc12", "read by": "replicon", "result": "<0.1 µM"}
{"smiles": "CCCCOc1ccc(N(C(N)=O)c2nc(-c3ccc(F)cc3)cs2)cc1C(F)(F)F", "result": "<1 µM"}
{"smiles": "COCC(C)N(C(=O)c1ccc(Cl)cc1Cl)c1cc(-c2ccccc2)sc1C(=O)O", "strain": "1a", "read by": "luciferase / replicon", "result": "1–5 µM"}
{"smiles": "O=C(NC1CC1)c1ccc(F)c(Cn2c(C(=O)O)c(-c3ccc[nH]c3=O)c3c4occc4c(F)cc32)c1", "read by": "replicon", "result": ">1.5 µM"}
{"smiles": "CCOc1nc(NC2(c3ccc(F)cc3)CC2)nc2ccc(-c3ccc(C(=O)NC(C)(C)CN4CCCC4)cc3)nc12", "read by": "replicon", "result": "<0.1 µM"}
{"smiles": "CC(C)N(C(=O)c1ccc(Cl)cc1Cl)c1cc(-c2ccc(-c3cc4ncccn4n3)cc2)sc1C(=O)O", "strain": "1a", "read by": "replicon / ELISA", "result": "0.05–0.1 µM"}
{"smiles": "CC(C)COc1ccc(N(C(N)=O)c2nc(-c3ccc(O)c(C(N)=O)c3)cs2)cc1C(F)(F)F", "result": "<1 µM"}
{"smiles": "O=C([C@@H](c1ccccc1)N1CCCCC1)N1CCC[C@@H]1c1ncc(-c2ccc(-c3ncc(-c4cnc([C@H]5CCCN5C(=O)[C@@H](c5cccnc5)N5CCCCC5)[nH]4)cn3)cc2)[nH]1", "strain": "1b", "result": "0.00001–0.000999 µM"}
{"smiles": "CS(=O)(=O)NC(=O)c1c(-c2ccc[nH]c2=O)c2c3occc3c(F)cc2n1Cc1ccccc1F", "read by": "replicon", "result": "<0.5 µM"}
{"smiles": "CCN(CC)[C@H](C)C(=O)N1CCC[C@@H]1c1ncc(-c2cnc(-c3ccc(-c4nc([C@H]5CCCN5C(=O)[C@H](C)N(CC)CC)[nH]c4C(F)(F)F)cc3)nc2)[nH]1", "strain": "1b", "result": "0.00001–0.000999 µM"}
{"smiles": "CCCCCCCCc1ccc(N(C(=O)OCCN(C)C)c2nc(-c3cccnc3)c(F)s2)cc1C(F)(F)F", "result": "<1 µM"}
{"smiles": "CCOc1nc(NCc2ccc(S(N)(=O)=O)cc2)nc2ccc(-c3ccc(F)c(Cl)c3)nc12", "read by": "replicon", "result": "<0.1 µM"}
{"smiles": "COC(=O)N[C@@H](C)C(=O)N1CCC[C@@H]1c1ncc(-c2cnc(-c3ccc(-c4nc([C@H]5CCCN5C(=O)[C@H](C)NC(=O)OC)[nH]c4C(F)(F)F)cc3)nc2)[nH]1", "strain": "1b", "result": "0.00001–0.000999 µM"}
{"smiles": "COc1ccc(N(C(N)=O)c2nc(-c3cccnc3)cs2)cc1C(F)(F)F", "result": "<1 µM"}
{"smiles": "CCOCCN(C(=O)C1CCC(C)CC1)c1cc(-c2ccc(-c3cc4nccc(N)n4n3)cc2)sc1C(=O)O", "strain": "1b", "read by": "replicon / ELISA", "result": "0.001–0.0049 µM"}
{"smiles": "CC(C)N(C(=O)c1ccc(Cl)cc1Cl)c1cc(-c2ccc(-c3cc4ncccc4o3)cc2)sc1C(=O)O", "strain": "1a", "read by": "replicon / ELISA", "result": "0.05–0.1 µM"}
{"smiles": "COC(=O)N[C@@H](C)C(=O)N1CCC[C@@H]1c1ncc(-c2ccc(-c3ncc(-c4cnc([C@H]5CCCN5C(=O)[C@H](C)NC(=O)OC)[nH]4)cn3)cc2)[nH]1", "strain": "1b", "result": "0.00001–0.000999 µM"}
{"smiles": "COCCN(C(=O)C1CCC(C(F)(F)F)CC1)c1cc(-c2ccc(-c3cc4ncccc4o3)cc2)sc1C(=O)O", "strain": "1a", "read by": "replicon / ELISA", "result": "0.1–0.49 µM"}
{"smiles": "O=C(O)c1c(-c2ccc[nH]c2=O)c2c3c(ccc2n1Cc1ccccc1F)OCCO3", "read by": "replicon", "result": "1–10 µM"}
{"smiles": "CCOCCN(C(=O)C1CCC(C)CC1)c1cc(-c2ccc(-c3cn4ccccc4n3)cc2)sc1C(=O)O", "strain": "1a", "read by": "replicon / ELISA", "result": "0.01–0.049 µM"}
{"smiles": "CN(C)[C@@H](C(=O)N1CCC[C@H]1c1ncc(-c2ccc(-c3ccc(-c4cnc([C@@H]5CCCN5C(=O)[C@@H](c5ccccc5)N(C)C)[nH]4)cc3)cc2)[nH]1)c1ccccc1", "strain": "1b", "result": "0.00001–0.000999 µM"}

For reference, 2 entries again:

smiles | strain | read by | result
COC(=O)N[C@@H](C)C(=O)N1CCC[C@@H]1c1ncc(-c2ccc(-c3ncc(-c4cnc([C@H]5CCCN5C(=O)[C@H](C)NC(=O)OC)[nH]4)cn3)cc2)[nH]1 | 1b |  | 0.00001–0.000999 µM
CS(=O)(=O)NC(=O)c1c(-c2ccc[nH]c2=O)c2c3occc3c(F)cc2n1Cc1ccccc1F |  | replicon | <0.5 µM

Blank or dashed fields: not listed here. Rows are shuffled and stem from different studies. a–b is a range or a potency band.